Assay results from patent publication US20240109955A1 (published 2024).

Key:
Assay in all cases: cell-based or functional assay
[1] = biological target: SARS-CoV-2 spike (S) protein, Delta variant B.1.617.2 (SARS-CoV-2, UniProt P0DTC2 14-1273)
[2] = biological target: SARS-CoV-2 spike (S) protein, Omicron sublineage BA.4/5 (SARS-CoV-2, UniProt P0DTC2 14-1273)
[3] = biological target: SARS-CoV-2 spike protein, Omicron sublineage BA.2.75.2 (R346T, F486S) (SARS-CoV-2, UniProt P0DTC2)

B1: MX835 (other)
chain 1: QTVVTQEPSFSVSPGGTVTLTCGLSSGSVSTAYFPSWYQQTPGQAPRTLIYGTNTRSSGVPDRFSGSILGNKAALTITGAQADDESDYYCVLYMGRGIVVFGGGTKLTVLGGSSGEIVLTQSPGTLSLSPGERATLSCRASQSVSSSYLAWYQQKPGQAPRLLIYSASSRATGIPDRFSGSGSGTDFTLTISRLEPEDFAVYFCQQYGGLTGWTFGQGTKVEIKGGGGSGGSGSGGGGSASGSGQMQLVQSGPEVKKPGTSVKVSCKASGFTFTSSAVQWVRQRQRLEWIGWIVVGSGNTNYAQKFQERVTITRDMSTSTAYMELSSLRSEDTAVYYCAAPNCSNVVCYDGFDIWGQGTMVTVSSGGSSGQVQLVESGGGVVQPGRSLRLSCAASGFTLSSYGMHWVRQAPGKGLEWVAVISYDGSNKYYVDSVKGRFTISRDNSKNTLYLQMNSLRAEDTAVYYCRWAYWELLPDYYYGMDVWGQGTTVTVSSASGGSGDKTHTCPPCPAPELLGGPSVFLFPPKPKDTLMISRTPEVTCVVVDVSHEDPEVKFNWYVDGVEVHNAKTKPREEQYNSYVVSVLTVLHQDWLNGKEYKCKVSNKALPAPIEKTISKAKGQPREPQVYTLPPCRDELTKNQVSLWCLVKGFYPSDIAVEWESNGQPENNYKTTPPVLDSDGSFFKKLTVDKSRWQQGNVFSCSVLHEALHSHYTQKSLSLSPG
chain 2: EIVLTQSPGTLSLSPGERATLSCRASQSVSSSYLAWYQQKPGQAPRLLIYSASSRATGIPDRFSGSGSGTDFTLTISRLEPEDFAVYFCQQYGGLTGWTFGQGTKVEIKGGSSGDIQMTQSPSSVSASVGDRVIITCRASQGISSWLAWYQQKPGKAPKVLIYDASSLQSGVPSRFSGSGYGTDFTLTISSLQPEDSATYYCQQAKSFPITFGQGTRLEIKGGGGSGGSGSGGGGSASGSGQVQLVESGGGVVQPGRSLRLSCAASGFTFSSYAFHWVRQAPGKGLEWVAVISYDGSNQYYADSVKGRFTISRDNSKNTLYLQMNSLRADDTAVYYCARDLAIAVAGTWHYYNGMDVWGQGTTVTVSSGGSSGQMQLVQSGPEVKKPGTSVKVSCKASGFTFTSSAVQWVRQRQRLEWIGWIVVGSGNTNYAQKFQERVTITRDMSTSTAYMELSSLRSEDTAVYYCAAPNCSNVVCYDGFDIWGQGTMVTVSSASGGSGDKTHTCPPCPAPELLGGPSVFLFPPKPKDTLMISRTPEVTCVVVDVSHEDPEVKFNWYVDGVEVHNAKTKPREEQYNSYVVSVLTVLHQDWLNGKEYKCKVSNKALPAPIEKTISKAKGQPREPQVCTLPPSRDELTKNQVSLSCAVKGFYPSDIAVEWESNGQPENNYKTTPPVLDSDGSFFLVSKLTVDKSRWQQGNVFSCSVLHEALHSHYTQKSLSLSPG
Q: What does the source list for B1?
A: IC50, pseudovirus neutralization [1]: 7.96 nM; IC80, pseudovirus neutralization [1]: 34.9 nM; IC50, pseudovirus neutralization [2]: 8.32 nM; IC80, pseudovirus neutralization [2]: 27.4 nM

B2: MX835 (other)
chain 1: B1 chain 1
chain 2: B1 chain 2
Q: B2 was tested. Which “IC50, pseudovirus neutralization” value [3] did it give?
A: > 10000 nM

Q: What about the “IC80, pseudovirus neutralization” value [3] of the same binder?
A: > 10000 nM

B3: MX837 (other)
chain 1: B1 chain 1 with G208V
chain 2: DIQMTQSPSSVSASVGDRVIITCRASQGISSWLAWYQQKPGKAPKVLIYDASSLQSGVPSRFSGSGYGTDFTLTISSLQPEDSATYYCQQAKSFPITFGQGTRLEIKGGSSGEIVLTQSPGTLSLSPGERATLSCRASQSVSSSYLAWYQQKPGQAPRLLIYSASSRATGIPDRFSGSGSGTDFTLTISRLEPEDFAVYFCQQYVGLTGWTFGQGTKVEIKGGGGSGGSGSGGGGSASGSGQMQLVQSGPEVKKPGTSVKVSCKASGFTFTSSAVQWVRQRQRLEWIGWIVVGSGNTNYAQKFQERVTITRDMSTSTAYMELSSLRSEDTAVYYCAAPNCSNVVCYDGFDIWGQGTMVTVSSGGSSGQVQLVESGGGVVQPGRSLRLSCAASGFTFSSYAFHWVRQAPGKGLEWVAVISYDGSNQYYADSVKGRFTISRDNSKNTLYLQMNSLRADDTAVYYCARDLAIAVAGTWHYYNGMDVWGQGTTVTVSSASGGSGDKTHTCPPCPAPELLGGPSVFLFPPKPKDTLMISRTPEVTCVVVDVSHEDPEVKFNWYVDGVEVHNAKTKPREEQYNSYVVSVLTVLHQDWLNGKEYKCKVSNKALPAPIEKTISKAKGQPREPQVCTLPPSRDELTKNQVSLSCAVKGFYPSDIAVEWESNGQPENNYKTTPPVLDSDGSFFLVSKLTVDKSRWQQGNVFSCSVLHEALHSHYTQKSLSLSPG
Q: For B3, which “IC50, pseudovirus neutralization” value [3] is on record?
A: > 10000 nM

Q: What about the “IC80, pseudovirus neutralization” value [3] of the same binder?
A: > 10000 nM

B4: MX834 (other)
chain 1: B1 chain 1 with G208V
chain 2: B1 chain 1 with G208V
Q: With B4 as the binder, how does the “IC50, pseudovirus neutralization” value [3] read?
A: > 10000 nM

Q: What about the “IC80, pseudovirus neutralization” value [3] of the same binder?
A: > 10000 nM

B5: MX838 (other)
chain 1: B1 chain 1
chain 2: B3 chain 2 with V205G
Q: With B5 as the binder, how does the “IC50, pseudovirus neutralization” value [1] read?
A: 36.4 nM

Q: What about the “IC80, pseudovirus neutralization” value [1] of the same binder?
A: 39.9 nM

Q: What about the “IC50, pseudovirus neutralization” value [2] of the same binder?
A: 7.84 nM

Q: What about the “IC80, pseudovirus neutralization” value [2] of the same binder?
A: 16 nM

Positions count from the first letter of the chain named.
